We go through one substance from PMC2730762 (Biochemistry, 2009).

Data set [1] relates to CC[C@H](C)[C@H](NC(=O)[C@H](CCCNC(=N)N)NC(=O)[C@H](CCC(=O)O)NC(=O)[C@@H](N)CC(C)C)C(=O)N[C@@H](Cc1ccccc1)C(=O)N[C@@H](Cc1ccc([N+](=O)[O-])cc1)C(=O)N[C@@H](CO)C(=O)N[C@@H](Cc1ccccc1)C(=O)O. Nature of the data set: purified protein, by the assay type. The settings on record: other: Recombinant K110pN PfPM1.
The subject of data set [2] is CC[C@H](C)[C@H](NC(=O)[C@@H]1CCCN1C(=O)[C@@H](N)CCCCN)C(=O)N[C@@H](CC(C)C)C(=O)N[C@@H](Cc1ccccc1)C(=O)N[C@@H](Cc1ccc([N+](=O)[O-])cc1)C(=O)N[C@@H](CCCNC(=N)N)C(=O)N[C@@H](CC(C)C)C(=O)O. Briefly: purified protein, by the assay type. The note with it: other: Recombinant K110pN PfPM1.

In general, Km refers to the substrate concentration at which the rate is half of its maximum. For orientation: kcat means the number of substrate molecules converted per active site and unit of time at saturation. What is called kcat/Km is the second-order rate constant that governs catalysis at low substrate concentration.

With “Recombinant K110pN Plasmepsin 1 (Plasmodium falciparum 3D7)”, in data set [1], the Km is recorded as 8.6 ± 0.2 µM, the kcat came out at 2.6 s⁻¹ and the catalytic efficiency (kcat/Km) stood at 302000 M⁻¹ s⁻¹. In addition, in data set [2], the Km is recorded as 13.2 ± 1.7 µM, the kcat amounted to 1.1 s⁻¹ and the kcat/Km stood at 85000 M⁻¹ s⁻¹.
